Pooled drug test results. Numbers come from NIAID ChemDB, via PubChem.

All rows: tests in culture; species: Mycobacterium tuberculosis

A number after MIC or MFC names an inhibition level or a share of isolates. MIC bound comes from a single tested concentration. Percent inhibition refers to the dose given; in toxicity tests it is the harm to the cells. Blank or dashed fields: not listed here. Conditions beyond the fields shown may differ between rows. ECn: concentration that inhibits the pathogen or its effect by n%.

compound	method	endpoint	tested at	strain	mutations	value
CC(=O)O[C@H]1CC[C@]2(C)[C@H]3CC=C4C5[C@@H](C)[C@H](C)CC[C@]5(C)CC[C@@]4(C)[C@]3(C)CC[C@H]2C1(C)C	resazurin	MIC90		H37Rv (ATCC 27294)		62.5 µg/mL
CCCc1cc(=O)oc2c(C(=O)CC)c(OC(C)=O)c3c(c12)OC(C)(C)CC3		MIC		H37Ra		>128 µg/mL
COCCCN1c2ccccc2Sc2ccccc21	resazurin	MIC90		H37Rv		>32 µg/mL
CN1C(=O)Cc2cc(C(=O)CN3CCN(c4noc5c(Cl)cccc45)CC3)ccc21	visual reading / absorbance	MIC		H37Rv		12.5 µg/mL
N/C(=N/N=C/c1ccc(Cl)cc1)c1ccccn1		MIC		H37Rv		64 µg/mL
CCCCCCCOc1c(C(C)=O)cc([N+](=O)[O-])c2nccc(CC)c12		inhibition	6.25 µg/mL	H37Rv		99%
CCCc1cc(=O)oc2c(C(=O)CC)c(OC(C)C)cc(O)c12		MIC		H37Ra		>128 µg/mL
COc1ccc(-c2cc(-c3ccco3)c(C#N)c(=S)n2C2OC(COC(C)=O)C(OC(C)=O)C(OC(C)=O)C2OC(C)=O)cc1	BACTEC	inhibition	12.5 µg/mL	H37Rv		18%
O=C1NC(C(=O)N/N=C/c2cccc([N+](=O)[O-])c2)CO1	resazurin	MIC		H37Rv		100 µg/mL
N/C(=N/N=C/c1ccccc1Br)c1ccccn1		MIC		H37Rv		8 µg/mL
CCOC(=O)c1cn(C(=O)CCl)c2ccccc2c1=O	resazurin	MIC bound		H37Rv		>6.25 µg/mL
COc1ccc(OC)c(/C=N/N=C(\N)c2ccccn2)c1		MIC		H37Rv		256 µg/mL
CC1CCN(C(=S)S)CC1.CC1CCNCC1		MIC		TAC-R		0.4 µg/mL
O=[N+]([O-])c1cccc2c(C3CCCC3)cc(C3CCCC3)nc12		MIC		Isoniazid-resistant		12.5 µg/mL
C[C@]1(COc2ccccc2)Cn2cc([N+](=O)[O-])nc2O1		MIC		H37Rv		0.06 µg/mL
CC[C@H](C)/C=C(C)/C=C/C(=O)CC1=C(C=O)C(O)C(C)C(O)C1	visual reading	EC50				50 µg/mL
CO[C@H]1/C=C/O[C@@]2(C)Oc3c(C)c(O)c4c(c3C2=O)C(=O)C(N2CCC(=NNC(N)=O)CC2)=C(NC(=O)/C(C)=C\C=C\[C@H](C)[C@H](O)[C@@H](C)[C@@H](O)[C@@H](C)[C@H](OC(C)=O)[C@@H]1C)C4=O		MIC		H37Rv		0.005 µg/mL
O=C1C(=O)c2ccccc2C(O)=C1C(C1=C(O)c2ccccc2C(=O)C1=O)c1ccccc1	BACTEC	MIC bound		H37Rv		>12.8 µg/mL
COc1ccc(C=C2c3ccccc3Sc3ccccc32)cc1C	resazurin	MIC90		H37Rv		29 µg/mL
C=CCOc1c2c(c3c(CCC)cc(=O)oc3c1C(=O)CC)OC(C)(C)CC2		MIC		H37Ra		>128 µg/mL
O=[N+]([O-])c1cccc2ccc(C3CCCCC3)nc12		MIC		Rifampicin-resistant		25 µg/mL
CCN1C(=O)Cc2cc(C(=O)CN3CCN(c4noc5cc(Cl)ccc45)CC3)ccc21	visual reading / absorbance	MIC		H37Rv		3.12 µg/mL
Oc1cc(N2CCCC2)ccc1/C=N/N1C(=S)N(c2ccccc2)C(=Nc2ccccc2)C1=Nc1ccccc1	BACTEC	inhibition	12.5 µg/mL	H37Rv		23%
N/C(=N/N=C/c1cccc(Br)c1)c1ccccn1		MIC		H37Rv		64 µg/mL
CCS/C(N)=N\N=C\c1cccnc1		MIC		ATCC 35822 (isoniazid-resistant)		>100 µg/mL
Cc1ccc(Nc2n[nH]c(=S)s2)cc1F	BACTEC	inhibition	12.5 µg/mL	H37Rv		0%
c1ccc(-c2ccccn2)nc1	resazurin / absorbance	MIC90		H37Rv		160.1 µM
O=C1CSC(c2ccc(F)cc2)N1c1nncs1	BACTEC	MIC bound		H37Rv		>12.5 µg/mL
CC(=O)c1cc(N)c2ncccc2c1C1CCCC1		MIC		H37Rv		>6.25 µg/mL
CC1C(=O)N(C)c2ccc(C(=O)CN3CCN(c4ccccn4)CC3)cc21	visual reading / absorbance	MIC		H37Rv		1.56 µg/mL
COc1ccc(/C=N/NC(=O)[C@H](CO)NC(=O)OC(C)(C)C)c(O)c1	resazurin	MIC		H37Rv		>100 µg/mL
CC(=O)OC1OC(=O)C=C1[C@H]1CC=C(CC/C=C(\C)CCC2=C(C)CCCC2(C)C)C(O)C1		MIC		H37Ra		7 µM
CC1C(=O)Nc2ccc(C(=O)CN3CCN(c4noc5ccccc45)CC3)cc21	visual reading / absorbance	MIC		H37Rv		25 µg/mL
NNC(=O)c1ccncc1	resazurin	MIC		XZ06008	Extensively drug-resistant	>256 µg/mL
O=C1c2ccccc2C(=O)N1CCC(=O)N1c2ccccc2Sc2ccccc21	resazurin	MIC90		H37Rv		31 µg/mL
O=C1Cc2cc(C(=O)CN3CCN(c4ccccn4)CC3)ccc2N1	visual reading / absorbance	MIC		H37Rv		25 µg/mL
CC(C)(C)OC(=O)N[C@@H](CO)C(=O)N/N=C/c1ccc(C#N)cc1	resazurin	MIC		H37Rv		>100 µg/mL
N/C(=N/N=C/c1ccc(Br)cc1)c1ccccn1		MIC		H37Rv		16 µg/mL
CC[C@H]1OC(=O)[C@H](C)C(=O)[C@H](C)[C@@H](O[C@@H]2O[C@H](C)C[C@H](N(C)C)[C@H]2O)[C@](C)(OC)C[C@@H](C)/C(=N\OCOCc2ccccc2)[C@H](C)[C@@H](O)[C@]1(C)O		MIC				>128 µM
CC(=O)OC(C)(C)/C=C/C(=O)C(C)(O)C1C(O)CC2(C)C3CC=C4C(CC(O)C(O)C4(C)C)C3(C)C(=O)CC12C	BACTEC	MIC bound		H37Rv		>12.5 µg/mL
CO[C@H]1/C=C/O[C@@]2(C)Oc3c(C)c(O)c4c(c3C2=O)C(=O)C(N2CCC(=NOCc3ccccc3)CC2)=C(NC(=O)/C(C)=C\C=C\[C@H](C)[C@H](O)[C@@H](C)[C@@H](O)[C@@H](C)[C@H](OC(C)=O)[C@@H]1C)C4=O		MIC		H37Rv		0.0025 µg/mL
CC[C@H]1OC(=O)[C@H](C)C(=O)[C@H](C)[C@@H](O[C@@H]2O[C@H](C)C[C@H](N(C)C)[C@H]2O)[C@](C)(OC)C[C@@H](C)/C(=N\OC2CCCN(C(=O)OCc3ccccc3)C2)[C@H](C)[C@@H](O)[C@]1(C)O		MIC				64 µM
C=C1C(=O)O[C@@H]2[C@H]3C(C)=CC(=O)C3=C(C)CC[C@@H]12	BACTEC	MIC		H37Rv		≥12.5 µg/mL
CC[C@H]1OC(=O)[C@H](C)C(=O)[C@H](C)[C@@H](O[C@@H]2O[C@H](C)C[C@H](N(C)C)[C@H]2O)[C@](C)(OC)C[C@@H](C)C(=O)[C@H](C)[C@H]2N(CCCCn3cnc(-c4cccnc4)c3)C(=O)O[C@]12C		MIC				128 µM
CCc1ccnc2c([N+](=O)[O-])cc(C(C)=O)c(OC(C)C)c12		inhibition	6.25 µg/mL	H37Rv		97%
CCN1C[C@]2(COC)[C@H](O)CC(OC)[C@]34C1[C@H](CC23OC)[C@]1(OC(C)=O)[C@H]2[C@@H](OC(=O)c3ccccc3)[C@](O)(C[C@H]24)[C@@H](OC)[C@@H]1O	BACTEC	MIC bound		H37Rv		>12.8 µg/mL
CCCc1cc(=O)oc2c3c(cc(OC(C)C)c12)O[C@H](C)[C@H](C)[C@@H]3O		MIC		H37Ra		16 µg/mL
CCCCCCCCN(c1ccc(C(=O)NC(CCC(=O)OCC)C(=O)OCC)cc1)S(=O)(=O)c1ccc(C)cc1	BACTEC	MIC bound		H37Rv		>12.5 µg/mL
O=C(N[C@@H](CO)C(=O)N/N=C/c1cccc([N+](=O)[O-])c1)OCc1ccccc1	resazurin	MIC		H37Rv		25 µg/mL
CC[C@H]1OC(=O)[C@H](C)C(=O)[C@H](C)[C@@H](O[C@@H]2O[C@H](C)C[C@H](N(C)C)[C@H]2O)[C@](C)(OC)C[C@@H](C)C(=O)[C@H](C)[C@@H](O)[C@]1(C)O		MIC				>128 µM
CCc1ccnc2c([N+](=O)[O-])cc(C(C)=O)c(OC3CCCC3)c12		MIC		H37Rv		>6.25 µg/mL
C=C/C=C/CC1=C(C)[C@@H](OC(=O)[C@@H]2[C@@H](/C=C(\C)C(=O)OC)C2(C)C)CC1=O		MIC		H37Rv		32 µg/mL
COc1ccccc1/C=N/NC(=O)[C@H](CO)NC(=O)OCc1ccccc1	resazurin	MIC		H37Rv		>100 µg/mL
CCN1C(=O)C(C)c2cc(C(=O)CN3CCN(c4noc5ccccc45)CC3)ccc21	visual reading / absorbance	MIC		H37Rv		1.56 µg/mL
Cc1c2sc3ccccc3nc-2c2ccccc2c1=O	BACTEC	MIC		H37Rv		1.56 µg/mL
O=C(c1ccccc1)N1c2ccccc2Sc2ccccc21	resazurin	MIC90		H37Rv		32 µg/mL
CCCCCCCCOc1c(C(C)=O)cc(N)c2nccc(CC)c12		inhibition	6.25 µg/mL	H37Rv		10%
CCCCCN1C2=C(Sc3ccccc31)C(=O)OC2	resazurin	MIC90		H37Rv		>32 µg/mL
CCOC(=O)N1C=Cc2c(c3ccccc3n2C)N1C(=O)OCC	resazurin	inhibition	6.25 µg/mL	H37Rv		83%
CO[C@H]1/C=C/O[C@@]2(C)Oc3c(C)c(O)c4c(O)c(c5c(c4c3C2=O)NC2(CCNCC2)N=5)=NC(=O)/C(C)=C\C=C\[C@H](C)[C@H](O)[C@@H](C)[C@@H](O)[C@@H](C)[C@H](OC(C)=O)[C@@H]1C	visual reading / absorbance	MIC		H37Rv		0.2 µg/mL
CC(=O)OC12c3ccccc3C(c3ccccc31)C1C(=O)N(c3ccccc3O)C(=O)C12	BACTEC	MIC bound		H37Rv		>12.5 µg/mL
O=C(Nc1cncc(Cl)n1)c1ccccc1O	resazurin	MIC		H37Rv		>100 µg/mL
CS/C(N)=N\N=C\c1cccnc1		MIC		ATCC 35822 (isoniazid-resistant)		>100 µg/mL
O=[N+]([O-])c1ccc(/C=C/C=C/c2ccc(Cl)cc2S(=O)(=O)F)c(Cl)c1	BACTEC	inhibition	12.5 µg/mL	H37Rv		0%
CC[C@H]1OC(=O)[C@H](C)C(=O)[C@H](C)[C@@H](O[C@@H]2O[C@H](C)C[C@H](N(C)C)[C@H]2O)[C@](C)(OC)C[C@@H](C)C(=O)[C@H](C)[C@H]2N(CC/C=C/c3ccccc3)C(=O)O[C@]12C		MIC				4 µM
O=C(NNC1=NCCN1Cc1ccccc1)c1cccc(Cl)c1	BACTEC	inhibition	12.5 µg/mL	H37Rv		47%
CCCCN1c2ccccc2Sc2ccccc21	resazurin	MIC90		H37Rv		>32 µg/mL
Cc1ccc(C)c(/C=N/N=C(\N)c2ccccn2)c1		MIC		H37Rv		256 µg/mL
N=C1OC(C(Cl)(Cl)Cl)N(c2cccc(F)c2)C1=O	BACTEC	MIC bound		H37Rv		>12.8 µg/mL
Cc1ccc(NC(=O)NC2c3ccccc3Sc3ccccc32)cc1	resazurin	MIC90		H37Rv		31 µg/mL
COc1c(OCC=C(C)C)cc2c(c1O)c(=O)c1ccccc1n2C	resazurin	inhibition	6.25 µg/mL	H37Rv		-6%
CCc1ccnc2c(N)cc(C(C)=O)c(OC3CCCC3)c12		MIC		H37Rv		>6.25 µg/mL
COC(=O)c1cc(=O)n2c(nc3ccccc32)s1	resazurin	MIC bound		H37Rv		>6.25 µg/mL
CCOC(=O)CCCCCCCCCCCC[C@H]1C=CCC1	GFP	MIC		H37Rv		16.8 µM
C[N+](C)(C)CC(=O)N/N=C/c1ccc([N+](=O)[O-])o1	BACTEC	MIC		H37Rv		12.5 µg/mL
CO[C@H]1/C=C/O[C@@]2(C)Oc3c(C)c(O)c4c(c3C2=O)C(=O)C(N2CCC(=NN3CCN(C)CC3)CC2)=C(NC(=O)/C(C)=C\C=C\[C@H](C)[C@H](O)[C@@H](C)[C@@H](O)[C@@H](C)[C@H](OC(C)=O)[C@@H]1C)C4=O		MIC		H37Rv		0.0025 µg/mL

For reference, 5 entries again:

compound	method	endpoint	tested at	strain	mutations	value
COc1ccc(C=C2c3ccccc3Sc3ccccc32)cc1C	resazurin	MIC90		H37Rv		29 µg/mL
CCOC(=O)c1cn(C(=O)CCl)c2ccccc2c1=O	resazurin	MIC bound		H37Rv		>6.25 µg/mL
CO[C@H]1/C=C/O[C@@]2(C)Oc3c(C)c(O)c4c(c3C2=O)C(=O)C(N2CCC(=NNC(N)=O)CC2)=C(NC(=O)/C(C)=C\C=C\[C@H](C)[C@H](O)[C@@H](C)[C@@H](O)[C@@H](C)[C@H](OC(C)=O)[C@@H]1C)C4=O		MIC		H37Rv		0.005 µg/mL
CC(=O)c1cc(N)c2ncccc2c1C1CCCC1		MIC		H37Rv		>6.25 µg/mL
O=C(N[C@@H](CO)C(=O)N/N=C/c1cccc([N+](=O)[O-])c1)OCc1ccccc1	resazurin	MIC		H37Rv		25 µg/mL